Laboratory results: patent US10414808B2 (priority 2012, dated 2019)

Sequences of proteins named here, by UniProt entry; tags and fusion partners are left off.
UniProt Q15858, whole entry W1161R, looked up: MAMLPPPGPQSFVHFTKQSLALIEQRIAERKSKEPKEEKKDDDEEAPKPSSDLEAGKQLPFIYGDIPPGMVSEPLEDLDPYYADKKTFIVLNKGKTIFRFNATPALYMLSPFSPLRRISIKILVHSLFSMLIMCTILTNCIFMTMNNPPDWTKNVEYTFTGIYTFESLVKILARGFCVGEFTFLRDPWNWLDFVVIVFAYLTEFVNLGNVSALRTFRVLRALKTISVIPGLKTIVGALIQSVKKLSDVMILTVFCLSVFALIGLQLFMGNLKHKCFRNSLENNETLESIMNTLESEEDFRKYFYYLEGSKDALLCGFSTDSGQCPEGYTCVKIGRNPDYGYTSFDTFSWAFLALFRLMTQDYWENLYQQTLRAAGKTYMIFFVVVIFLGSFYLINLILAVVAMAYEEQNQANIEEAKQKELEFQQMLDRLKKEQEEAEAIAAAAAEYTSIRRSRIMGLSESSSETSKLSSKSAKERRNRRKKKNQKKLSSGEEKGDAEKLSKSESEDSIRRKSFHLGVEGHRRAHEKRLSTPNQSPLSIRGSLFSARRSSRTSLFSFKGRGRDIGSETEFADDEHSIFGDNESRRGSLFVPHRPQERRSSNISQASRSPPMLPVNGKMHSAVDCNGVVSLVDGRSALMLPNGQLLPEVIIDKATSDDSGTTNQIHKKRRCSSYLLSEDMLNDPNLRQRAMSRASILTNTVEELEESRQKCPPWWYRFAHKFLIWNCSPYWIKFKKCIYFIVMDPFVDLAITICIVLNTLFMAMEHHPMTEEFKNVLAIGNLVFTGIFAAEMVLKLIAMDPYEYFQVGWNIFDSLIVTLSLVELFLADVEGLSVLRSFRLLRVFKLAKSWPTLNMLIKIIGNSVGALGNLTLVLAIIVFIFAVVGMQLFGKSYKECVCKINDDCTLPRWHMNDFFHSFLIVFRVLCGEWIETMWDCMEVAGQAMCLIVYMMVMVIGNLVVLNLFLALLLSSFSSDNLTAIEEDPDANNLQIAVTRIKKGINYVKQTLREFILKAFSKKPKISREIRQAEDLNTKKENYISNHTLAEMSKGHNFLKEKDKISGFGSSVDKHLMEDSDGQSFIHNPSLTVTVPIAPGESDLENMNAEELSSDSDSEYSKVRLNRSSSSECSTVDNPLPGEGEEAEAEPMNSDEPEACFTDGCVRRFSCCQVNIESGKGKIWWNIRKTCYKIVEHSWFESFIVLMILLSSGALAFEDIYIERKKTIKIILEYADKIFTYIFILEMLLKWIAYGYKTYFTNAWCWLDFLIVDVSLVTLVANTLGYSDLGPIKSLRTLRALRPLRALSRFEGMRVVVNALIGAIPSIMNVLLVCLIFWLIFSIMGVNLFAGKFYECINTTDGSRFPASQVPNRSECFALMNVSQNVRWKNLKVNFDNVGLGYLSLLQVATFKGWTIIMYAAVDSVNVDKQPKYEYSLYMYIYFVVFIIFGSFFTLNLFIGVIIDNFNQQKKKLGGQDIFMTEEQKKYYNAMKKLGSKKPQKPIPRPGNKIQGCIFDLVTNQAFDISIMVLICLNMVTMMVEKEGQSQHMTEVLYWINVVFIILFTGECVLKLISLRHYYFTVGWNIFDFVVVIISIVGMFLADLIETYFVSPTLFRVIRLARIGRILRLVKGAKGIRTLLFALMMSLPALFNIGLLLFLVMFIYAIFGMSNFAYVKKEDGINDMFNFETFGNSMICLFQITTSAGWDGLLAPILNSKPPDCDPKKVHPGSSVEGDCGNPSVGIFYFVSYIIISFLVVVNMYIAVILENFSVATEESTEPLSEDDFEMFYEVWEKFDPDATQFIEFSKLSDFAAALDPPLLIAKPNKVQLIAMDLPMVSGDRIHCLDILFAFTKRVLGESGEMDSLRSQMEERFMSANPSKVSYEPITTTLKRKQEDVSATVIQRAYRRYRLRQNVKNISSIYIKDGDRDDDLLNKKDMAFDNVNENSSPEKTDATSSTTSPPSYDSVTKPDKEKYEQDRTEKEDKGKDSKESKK
UniProt Q99250, whole entry, looked up: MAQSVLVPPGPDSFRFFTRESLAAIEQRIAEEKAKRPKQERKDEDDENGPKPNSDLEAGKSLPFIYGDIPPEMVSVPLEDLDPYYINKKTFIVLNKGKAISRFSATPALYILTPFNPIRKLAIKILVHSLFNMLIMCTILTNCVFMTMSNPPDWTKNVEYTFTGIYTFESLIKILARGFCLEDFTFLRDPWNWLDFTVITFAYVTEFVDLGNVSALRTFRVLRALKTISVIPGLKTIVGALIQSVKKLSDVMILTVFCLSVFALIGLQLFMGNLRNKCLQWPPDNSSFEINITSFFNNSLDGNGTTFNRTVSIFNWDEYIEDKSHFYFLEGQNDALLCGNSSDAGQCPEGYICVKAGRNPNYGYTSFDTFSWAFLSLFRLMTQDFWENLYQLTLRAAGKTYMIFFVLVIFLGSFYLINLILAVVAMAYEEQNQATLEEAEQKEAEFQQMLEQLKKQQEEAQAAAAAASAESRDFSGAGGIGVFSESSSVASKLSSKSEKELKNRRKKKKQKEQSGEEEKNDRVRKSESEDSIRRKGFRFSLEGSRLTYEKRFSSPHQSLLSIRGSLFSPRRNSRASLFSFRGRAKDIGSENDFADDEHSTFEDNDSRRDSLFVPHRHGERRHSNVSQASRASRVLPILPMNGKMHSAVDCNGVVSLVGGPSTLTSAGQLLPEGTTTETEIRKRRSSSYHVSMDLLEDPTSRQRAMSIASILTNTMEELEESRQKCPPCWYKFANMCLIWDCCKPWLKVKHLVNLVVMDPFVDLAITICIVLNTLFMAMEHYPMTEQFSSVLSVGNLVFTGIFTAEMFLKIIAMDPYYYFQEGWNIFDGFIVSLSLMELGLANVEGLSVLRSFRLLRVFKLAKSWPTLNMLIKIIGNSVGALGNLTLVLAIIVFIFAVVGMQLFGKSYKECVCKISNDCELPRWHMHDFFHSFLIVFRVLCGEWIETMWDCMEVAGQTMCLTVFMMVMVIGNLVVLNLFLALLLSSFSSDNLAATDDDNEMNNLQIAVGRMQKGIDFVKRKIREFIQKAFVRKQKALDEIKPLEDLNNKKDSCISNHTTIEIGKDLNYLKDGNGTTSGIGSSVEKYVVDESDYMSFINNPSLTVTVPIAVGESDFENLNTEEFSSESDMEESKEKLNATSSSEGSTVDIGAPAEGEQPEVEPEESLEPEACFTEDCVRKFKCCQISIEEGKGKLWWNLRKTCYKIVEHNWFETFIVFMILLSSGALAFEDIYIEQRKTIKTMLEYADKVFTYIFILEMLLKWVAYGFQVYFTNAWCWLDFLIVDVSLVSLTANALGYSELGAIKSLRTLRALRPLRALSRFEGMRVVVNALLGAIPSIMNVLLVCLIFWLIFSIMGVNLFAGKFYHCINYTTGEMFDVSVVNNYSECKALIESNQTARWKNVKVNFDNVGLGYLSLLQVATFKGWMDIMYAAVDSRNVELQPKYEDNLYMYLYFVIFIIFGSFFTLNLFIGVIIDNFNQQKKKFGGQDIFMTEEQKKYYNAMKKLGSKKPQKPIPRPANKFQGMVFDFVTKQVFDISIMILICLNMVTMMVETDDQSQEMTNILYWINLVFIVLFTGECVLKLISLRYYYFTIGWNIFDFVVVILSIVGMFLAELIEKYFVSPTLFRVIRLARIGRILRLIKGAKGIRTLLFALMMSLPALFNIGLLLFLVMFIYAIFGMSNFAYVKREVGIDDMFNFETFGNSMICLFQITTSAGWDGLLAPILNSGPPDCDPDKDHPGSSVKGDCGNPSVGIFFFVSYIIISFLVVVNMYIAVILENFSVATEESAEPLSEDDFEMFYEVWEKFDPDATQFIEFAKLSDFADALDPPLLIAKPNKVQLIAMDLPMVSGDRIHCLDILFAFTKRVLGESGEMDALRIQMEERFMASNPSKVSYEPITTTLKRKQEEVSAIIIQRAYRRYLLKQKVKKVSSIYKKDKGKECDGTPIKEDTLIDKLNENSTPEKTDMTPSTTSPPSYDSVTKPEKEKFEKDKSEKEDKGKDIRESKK

Legend:
[1] = biological target: Nav1.7 (Homo sapiens, UniProt Q15858, W1161R); experiment: IC50 (Nav1.7) µM; conditions: read-out: IC50 (Nav1.7) µM
[2] = biological target: Nav1.2 (Homo sapiens, UniProt Q99250); experiment: IC50 (Nav1.2) µM; conditions: read-out: IC50 (Nav1.2) µM

Row | Compound | IC50 [1] [µM] | IC50 [2] [µM]
1 | CC[C@H](C)[C@H](NC(=O)[C@H](CCC(N)=O)NC(=O)[C@H](Cc1ccc(O)cc1)NC(=O)[C@H](CCCCN)NC(=O)[C@@H]1CSSC[C@@H]2NC(=O)[C@H](CCC(N)=O)NC(=O)[C@H](CC(=O)O)NC(=O)[C@H](CC(N)=O)NC(=O)[C@H](CO)NC(=O)[C@@H]3CCCN3C(=O)[C@H](CC(N)=O)NC(=O)[C@@H]3CSSC[C@H](NC(=O)[C@H](C(C)C)NC(=O)[C@H](CC(C)C)NC(=O)[C@H](CCCCN)NC(=O)[C@H](CO)NC(=O)[C@H](CO)NC(=O)[C@H](CCCCN)NC(=O)[C@H](CSSC[C@H](NC(=O)[C@H](CCC(=O)O)NC(=O)[C@@H]4CCCN4C(=O)CN)C(=O)N[C@@H](CC(C)C)C(=O)N[C@@H](CCC(=O)O)C(=O)N[C@@H]([C@@H](C)CC)C(=O)N[C@@H](Cc4ccccc4)C(=O)N[C@@H](CCCCN)C(=O)N[C@@H](C)C(=O)N3)NC2=O)C(=O)N[C@@H](CO)C(=O)N[C@@H](CCCNC(=N)N)C(=O)N[C@@H](Cc2c[nH]c3ccccc23)C(=O)N[C@@H]([C@@H](C)O)C(=O)N[C@@H](CCCNC(=N)N)C(=O)N[C@@H](Cc2c[nH]c3ccccc23)C(=O)N1)C(=O)NCC(=O)N[C@@H](CCCCN)C(=O)O | 0.06 | > 0.92
2 | CC[C@H](C)[C@H](NC(=O)[C@H](CCC(N)=O)NC(=O)[C@H](Cc1ccc(O)cc1)NC(=O)[C@H](CCCCN)NC(=O)[C@@H]1CSSC[C@@H]2NC(=O)[C@H](CC(N)=O)NC(=O)[C@H](CC(=O)O)NC(=O)[C@H](CC(N)=O)NC(=O)[C@H](CO)NC(=O)[C@@H]3CCCN3C(=O)[C@H](CC(N)=O)NC(=O)[C@@H]3CSSC[C@H](NC(=O)[C@H](C(C)C)NC(=O)[C@H](CC(C)C)NC(=O)[C@H](CCCCN)NC(=O)[C@H](CO)NC(=O)[C@H](CO)NC(=O)[C@H](CCCCN)NC(=O)[C@H](CSSC[C@H](NC(=O)[C@H](CCC(=O)O)NC(=O)[C@@H]4CCCN4C(=O)CN)C(=O)N[C@@H](CC(C)C)C(=O)N[C@@H](CCC(=O)O)C(=O)N[C@@H]([C@@H](C)CC)C(=O)N[C@@H](Cc4ccccc4)C(=O)N[C@@H](CCCCN)C(=O)N[C@@H](C)C(=O)N3)NC2=O)C(=O)N[C@@H](CO)C(=O)N[C@@H](CCCNC(=N)N)C(=O)N[C@@H](CCCCN)C(=O)N[C@@H]([C@@H](C)O)C(=O)N[C@@H](CCCNC(=N)N)C(=O)N[C@@H](Cc2c[nH]c3ccccc23)C(=O)N1)C(=O)NCC(=O)N[C@@H](CCCCN)C(=O)O | 0.02 | 0.06
3 | CC[C@H](C)[C@H](NC(=O)[C@H](CCC(N)=O)NC(=O)[C@H](Cc1ccc(O)cc1)NC(=O)[C@H](CCCCN)NC(=O)[C@@H]1CSSC[C@@H]2NC(=O)[C@H](CCC(N)=O)NC(=O)[C@H](CC(=O)O)NC(=O)[C@H](CC(N)=O)NC(=O)[C@H](CO)NC(=O)[C@@H]3CCCN3C(=O)[C@H](CC(N)=O)NC(=O)[C@@H]3CSSC[C@H](NC(=O)[C@H](C(C)C)NC(=O)[C@H](CC(C)C)NC(=O)[C@H](CCCCN)NC(=O)[C@H](CC(N)=O)NC(=O)[C@H](CO)NC(=O)[C@H](CCCCN)NC(=O)[C@H](CSSC[C@H](NC(=O)[C@H](CCC(=O)O)NC(=O)[C@@H]4CCCN4C(=O)CN)C(=O)N[C@@H](CC(C)C)C(=O)N[C@@H](CCC(=O)O)C(=O)N[C@@H]([C@@H](C)CC)C(=O)N[C@@H](Cc4ccccc4)C(=O)N[C@@H](CCCCN)C(=O)N[C@@H](C)C(=O)N3)NC2=O)C(=O)N[C@@H](CO)C(=O)N[C@@H](CCCNC(=N)N)C(=O)N[C@@H](CCCCN)C(=O)N[C@@H]([C@@H](C)O)C(=O)N[C@@H](CCCNC(=N)N)C(=O)N[C@@H](Cc2c[nH]c3ccccc23)C(=O)N1)C(=O)NCC(=O)N[C@@H](CCCCN)C(=O)O | 0.02 | 0.07
4 | CC[C@H](C)[C@H](NC(=O)[C@H](CCC(N)=O)NC(=O)[C@H](Cc1ccc(O)cc1)NC(=O)[C@H](CCCCN)NC(=O)[C@@H]1CSSC[C@@H]2NC(=O)[C@H](CCC(N)=O)NC(=O)[C@H](CC(=O)O)NC(=O)[C@H](CC(N)=O)NC(=O)[C@H](CO)NC(=O)[C@@H]3CCCN3C(=O)[C@H](CC(N)=O)NC(=O)[C@@H]3CSSC[C@H](NC(=O)[C@H](C(C)C)NC(=O)[C@H](CC(C)C)NC(=O)[C@H](CCCCN)NC(=O)[C@H](CO)NC(=O)[C@H](CO)NC(=O)[C@H](CCCCN)NC(=O)[C@H](CSSC[C@H](NC(=O)[C@H](CCC(=O)O)NC(=O)[C@@H]4CCCN4C(=O)CN)C(=O)N[C@@H](CC(C)C)C(=O)N[C@@H](CCC(=O)O)C(=O)N[C@@H]([C@@H](C)CC)C(=O)N[C@@H](Cc4ccccc4)C(=O)N[C@@H](CCCCN)C(=O)N[C@@H](C)C(=O)N3)NC2=O)C(=O)N[C@@H](CO)C(=O)N[C@@H](CCCNC(=N)N)C(=O)N[C@@H](CCCCN)C(=O)N[C@@H]([C@@H](C)O)C(=O)N[C@@H](CCCNC(=N)N)C(=O)N[C@@H](CCCCN)C(=O)N1)C(=O)NCC(=O)N[C@@H](CCCCN)C(=O)O | 0.1 | > 2.95
5 | CC[C@H](C)[C@H](NC(=O)[C@H](CCC(N)=O)NC(=O)[C@H](Cc1ccc(O)cc1)NC(=O)[C@H](CCCCN)NC(=O)[C@@H]1CSSC[C@@H]2NC(=O)[C@H](CCC(N)=O)NC(=O)[C@H](CC(=O)O)NC(=O)[C@H](CC(N)=O)NC(=O)[C@H](CO)NC(=O)[C@@H]3CCCN3C(=O)[C@H](CC(N)=O)NC(=O)[C@@H]3CSSC[C@H](NC(=O)[C@H](C(C)C)NC(=O)[C@H](CC(C)C)NC(=O)[C@H](CCCCN)NC(=O)[C@H](CO)NC(=O)[C@H](CCC(N)=O)NC(=O)[C@H](CCCCN)NC(=O)[C@H](CSSC[C@H](NC(=O)[C@H](CCC(=O)O)NC(=O)[C@@H]4CCCN4C(=O)CN)C(=O)N[C@@H](CC(C)C)C(=O)N[C@@H](CCC(=O)O)C(=O)N[C@@H]([C@@H](C)CC)C(=O)N[C@@H](Cc4ccccc4)C(=O)N[C@@H](CCCCN)C(=O)N[C@@H](C)C(=O)N3)NC2=O)C(=O)N[C@@H](CO)C(=O)N[C@@H](CCCNC(=N)N)C(=O)N[C@@H](CCCCN)C(=O)N[C@@H]([C@@H](C)O)C(=O)N[C@@H](CCCNC(=N)N)C(=O)N[C@@H](Cc2c[nH]c3ccccc23)C(=O)N1)C(=O)NCC(=O)N[C@@H](CCCCN)C(=O)O | 0.02 | 0.46
6 | CC[C@H](C)[C@@H]1NC(=O)[C@H](CCCNC(=N)N)NC(=O)[C@H](CC(C)C)NC(=O)[C@@H](NC(=O)[C@H](CC(N)=O)NC(=O)[C@@H]2CCCN2C(=O)CN)CSSC[C@@H]2NC(=O)[C@@H]3CSSC[C@@H](C(=O)N[C@@H](CCCCN)C(=O)N[C@@H](Cc4ccc(O)cc4)C(=O)N[C@@H](CCC(N)=O)C(=O)N[C@H](C(=O)N[C@H](C(=O)N[C@@H](CCCCN)C(=O)O)[C@@H](C)CC)[C@@H](C)CC)NC(=O)[C@H](Cc4c[nH]c5ccccc45)NC(=O)[C@H](CCCNC(=N)N)NC(=O)[C@H]([C@@H](C)O)NC(=O)[C@H](CCCCN)NC(=O)[C@H](CCCNC(=N)N)NC(=O)[C@H](CO)NC(=O)[C@H](CSSC[C@H](NC(=O)[C@H](C)NC(=O)[C@H](CCCCN)NC(=O)[C@H](Cc4ccccc4)NC1=O)C(=O)N[C@@H](CC(N)=O)C(=O)N1CCC[C@H]1C(=O)N[C@@H](CO)C(=O)N[C@@H](CC(N)=O)C(=O)N[C@@H](CC(=O)O)C(=O)N[C@@H](CCC(N)=O)C(=O)N3)NC(=O)[C@H](C(C)C)NC(=O)[C@H](CC(C)C)NC(=O)[C@H](CCCCN)NC(=O)[C@H](CO)NC(=O)[C@H](CO)NC(=O)[C@H](CCCCN)NC2=O | 0.02 | 0.15
7 | CC[C@H](C)[C@H](NC(=O)[C@H](CCC(N)=O)NC(=O)[C@H](Cc1ccc(O)cc1)NC(=O)[C@H](CCCCN)NC(=O)[C@@H]1CSSC[C@@H]2NC(=O)[C@@H]3CCCN3C(=O)[C@H](CC(=O)O)NC(=O)[C@H](CC(N)=O)NC(=O)[C@H](CO)NC(=O)[C@@H]3CCCN3C(=O)[C@H](CC(N)=O)NC(=O)[C@@H]3CSSC[C@H](NC(=O)[C@H](C(C)C)NC(=O)[C@H](CC(C)C)NC(=O)[C@H](CCCCN)NC(=O)[C@H](CO)NC(=O)[C@H](CO)NC(=O)[C@H](CCCCN)NC(=O)[C@H](CSSC[C@H](NC(=O)[C@H](CCC(=O)O)NC(=O)[C@@H]4CCCN4C(=O)CN)C(=O)N[C@@H](CC(C)C)C(=O)N[C@@H](CCC(=O)O)C(=O)N[C@@H]([C@@H](C)CC)C(=O)N[C@@H](Cc4ccccc4)C(=O)N[C@@H](CCCCN)C(=O)N[C@@H](C)C(=O)N3)NC2=O)C(=O)N[C@@H](CO)C(=O)N[C@@H](CCCNC(=N)N)C(=O)N[C@@H](CCCCN)C(=O)N[C@@H]([C@@H](C)O)C(=O)N[C@@H](CCCNC(=N)N)C(=O)N[C@@H](Cc2c[nH]c3ccccc23)C(=O)N1)C(=O)NCC(=O)N[C@@H](CCCCN)C(=O)O | 0.35 | 4.63
8 | CC[C@H](C)[C@H](NC(=O)[C@H](CCC(N)=O)NC(=O)[C@H](Cc1ccc(O)cc1)NC(=O)[C@H](CCCCN)NC(=O)[C@@H]1CSSC[C@@H]2NC(=O)[C@H](CCC(N)=O)NC(=O)[C@H](CC(=O)O)NC(=O)[C@H](CC(N)=O)NC(=O)[C@H](CO)NC(=O)[C@@H]3CCCN3C(=O)[C@H](CC(N)=O)NC(=O)[C@@H]3CSSC[C@H](NC(=O)[C@H](C(C)C)NC(=O)[C@H](CC(C)C)NC(=O)[C@H](CCCCN)NC(=O)[C@H](CO)NC(=O)[C@H](CO)NC(=O)[C@H](CCCCN)NC(=O)[C@H](CSSC[C@H](NC(=O)[C@H](CCC(=O)O)NC(=O)[C@@H]4CCCN4C(=O)CN)C(=O)N[C@@H](CC(C)C)C(=O)N[C@@H](CCC(=O)O)C(=O)N[C@@H]([C@@H](C)CC)C(=O)N[C@@H](Cc4ccccc4)C(=O)N[C@@H](CCCCN)C(=O)N[C@@H](C)C(=O)N3)NC2=O)C(=O)N[C@@H](CO)C(=O)N[C@@H](CCCNC(=N)N)C(=O)N[C@@H](CCCCN)C(=O)N[C@@H]([C@@H](C)O)C(=O)N[C@@H](CC(N)=O)C(=O)N[C@@H](Cc2c[nH]c3ccccc23)C(=O)N1)C(=O)NCC(=O)N[C@@H](CCCCN)C(=O)O | 0.15 | > 2.59
